{
  "source": "patent US20200298233A1",
  "about": "“MICROFLUIDIC PAPER CHIP FOR DETECTING MICRO-ORGANISM, METHOD FOR PREPARING THE SAME AND METHOD FOR DETECTING MICRO-ORGANISM USING THE SAME” (BIOMAX CO., LTD., priority 2017, published 2020)",
  "key": {"food risk microorganism": {"system": "food risk microorganism", "assay": "Coloring reaction test for different concentrations of chromogenic reagent, microorganism not named at the place", "format": "biochemical", "conditions": "30 minutes at 37° C."}, "Escherichia coli": {"system": "Escherichia coli", "assay": "Coloring test of microfluidic paper chip", "conditions": "5 μL loaded, 30 minutes at 37° C."}, "Salmonella spp. [1]": {"system": "Salmonella spp.", "assay": "Coloring test of microfluidic paper chip", "conditions": "5 μL loaded, 30 minutes at 37° C."}, "Salmonella spp. [2]": {"system": "Salmonella spp.", "assay": "Coloring reaction test of chromogenic reagents, 96 well plate", "format": "biochemical", "conditions": "30 minutes at 37° C."}, "Staphylococcus aureus": {"system": "Staphylococcus aureus", "assay": "Coloring reaction test of chromogenic reagents, 96 well plate", "format": "biochemical", "conditions": "30 minutes at 37° C."}, "[3]": {"system": "5 food risk microorganisms", "assay": "Bacterial lysis efficacy by optical density, overall statements", "format": "cell-based"}},
  "data": [
    {"compound": "O.O.O.O=C([O-])[C@H]1O[C@@H](Oc2c[nH]c3ccc(Br)c(Cl)c23)[C@H](O)[C@@H](O)[C@@H]1O.[Na+]", "note": "[X-beta-glucuronide, 5-Bromo-4-chloro-3-indoxyl-beta-D-glucuronic acid Sodium salt trihydrate]", "values": [
      {"measurement": "final concentration showing a strong coloring reaction", "setting": "food risk microorganism", "value": "5 to 10", "unit": "mM"},
      {"measurement": "final concentration showing the strongest coloring reaction", "setting": "food risk microorganism", "value": 10, "unit": "mM"},
      {"measurement": "most preferable concentration of chromogenic reagent loaded on paper chip", "setting": "Escherichia coli", "value": 100, "unit": "mM"},
      {"measurement": "preferable concentration of chromogenic reagent loaded on paper chip", "setting": "Escherichia coli", "value": "25 to 200", "unit": "mM"}
    ]},
    {"compound": "O=P([O-])([O-])Oc1c[nH]c2ccc(Br)c(Cl)c12.[Na+].[Na+]", "note": "[X-phosphate, 5-Bromo-4-chloro-3-indoxyl phosphate, disodium salt]", "values": [
      {"measurement": "most preferable concentration of chromogenic reagent loaded on paper chip", "setting": "Salmonella spp. [1]", "value": 50, "unit": "mM"},
      {"measurement": "preferable concentration of chromogenic reagent loaded on paper chip", "setting": "Salmonella spp. [1]", "value": "25 to 100", "unit": "mM"},
      {"measurement": "final concentration showing a strong coloring reaction", "setting": "Salmonella spp. [2]", "value": "5 to 10", "unit": "mM"},
      {"measurement": "final concentration showing the strongest coloring reaction", "setting": "Salmonella spp. [2]", "value": 10, "unit": "mM"},
      {"measurement": "final concentration showing a strong coloring reaction", "setting": "Staphylococcus aureus", "value": "5 to 10", "unit": "mM"}
    ]},
    {"compound": "CCCCCCCC(=O)Oc1c[nH]c2cc(Cl)c(Br)cc12", "note": "[Magenta-caprylate, 5-Bromo-6-chloro-3-indoxyl caprylate]", "values": [
      {"measurement": "final concentration showing a strong coloring reaction", "setting": "food risk microorganism", "value": "5 to 10", "unit": "mM"},
      {"measurement": "final concentration showing the strongest coloring reaction", "setting": "food risk microorganism", "value": 10, "unit": "mM"}
    ]},
    {"compound": "CCCCCCCCCCCCCC[N+](C)(C)CCCS(=O)(=O)[O-]", "note": "[SB3-14]", "values": [
      {"measurement": "concentration at which the best bacterial lysis efficacy is expressed", "setting": "[3]; tables 5 and 6, except for Vibrio vulnificus", "value": 1, "unit": "%"}
    ]},
    {"compound": "Aldol ® 518 myo-inositol-1-phosphate [Aldol-myo-inositol-1-phosphate]", "values": [
      {"measurement": "final concentration showing a strong coloring reaction", "setting": "food risk microorganism", "value": "2 to 4", "unit": "mM"},
      {"measurement": "final concentration showing the strongest coloring reaction", "setting": "food risk microorganism", "value": 4, "unit": "mM"}
    ]},
    {"compound": "OC[C@H]1O[C@H](Oc2c[nH]c3cc(Cl)ccc23)[C@H](O)[C@@H](O)[C@@H]1O", "note": "[Salmon-alpha-glucospyranoside, 6-Chloro-3-indoxyl-alpha-D-glucopyranoside]", "values": [
      {"measurement": "most preferable concentration of chromogenic reagent loaded on paper chip", "setting": "Salmonella spp. [1]", "value": 200, "unit": "mM"},
      {"measurement": "preferable concentration of chromogenic reagent loaded on paper chip", "setting": "Salmonella spp. [1]", "value": "25 to 300", "unit": "mM"}
    ]},
    {"compound": "CCCCCCCc1ccc(C(O)CC[N+](C)(C)CCCS(=O)(=O)[O-])cc1", "note": "(centres unmarked) [C7BzO, 3-[[3-(4-heptylphenyl)-3-hydroxypropyl]-dimethylazaniumyl]propane-1-sulfonate]", "values": [
      {"measurement": "C7BzO concentration at which lysis efficacy increased the most", "setting": "[3]; added to 1% (v/v) SB3-14, table 8", "value": "0.1 % (v/v)"}
    ]}
  ]
}
